Measurements reported in ChEMBL document CHEMBL1129709, “(Hydroxyethyl) sulfonamide HIV-1 Protease inhibitors: Identification of the 2-methylbenzoyl moiety at P-2” (Bioorg Med Chem Lett, 1996).

Test system: CCRF-CEM
Experiment: Toxic dose was evaluated against HIV-IIIB strain of HIV-1 in CEM cell culture assay
Settings: Homo sapiens, CEM cells; read-out: TD50 (the source's name)

`COc1ccc(S(=O)(=O)N(CC(C)C)C[C@@H](O)[C@H](Cc2ccccc2)NC(=O)c2ccc(N)cc2C)cc1` showed a CC50 of over 10 µM.
